Data: paper PMC5754140, “Two classes of protective antibodies against Pseudorabies virus variant glycoprotein B: Implications for vaccine design” (2017)

Columns and labels:
[1] = molecular target: PRV gB ectodomain, soluble (residues A59 to N752, strain HN1201) (Pseudorabies virus (strain HN1201)); test: SEC
[2] = molecular target: PRV gB ectodomain, soluble (residues A59 to N752, strain HN1201) (Pseudorabies virus (strain HN1201)); test: crystal structure

Q: How did the stoichiometry N [1] turn out when “PRV gB ectodomain, soluble (residues A59 to N752, strain HN1201) (domain or fragment)” was run?
A: The stoichiometry N was 3.

Q: What about the stoichiometry N [2] of the same substance?
A: The stoichiometry N was 3.
